# Screening data, single-dose tests

The filed quantity is “Percent Effect” (%). How 0% and 100% were set is not recorded. Most values in the screen are low, and negative values occur. Many other results are left out here, so strong results are more common than in the screen.

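Growth of Mycobacterium tuberculosis over 3 days (7H9 medium with glucose and tyloxapol); the read-out is not stated. Compounds at 500 µM. Direction is inferred from retests: higher values go with more growth inhibition. Size under these conditions: about 18,000 compounds, about 1,400 of them at 50% or above in at least one test.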

structure | Percent Effect
CCS(=O)(=O)NC1CCCNC1 (stereo not shown) | 0.7982
Cc1cccc(C)c1NC(=O)CN1CCN(C)CC1 | -16.36
O=C(Cc1cccc(O)c1)NCCN1CC=CC1 | 13.26
CCNC(=O)C1(CN)CCC1 | 5.166
O=C(CN1CCCC1c1ccsc1)N1CCOCC1 (stereo not shown) | 29.32
CN1C(=O)Cc2ccccc2C1C(=O)N1CCCC1 (stereo not shown) | -3.574
COC(=O)CCNC(=O)c1c(C)nn(C)c1C | 1.64
O=C1NC[C@@H]2[C@H]1CCCN2C(=O)c1cc(C2CC2)on1 | 7.662
O=C(CO)N1C[C@@H](CN2CCCCCC2)[C@@H](CO)C1 | -48.51
CCC(C)(C)NC(=O)c1scnc1C | -10.74
Cc1onc(-c2ccccn2)c1C(=O)NC(C)C | -6.042
O=C(NC(CO)c1ccccc1)[C@@H](O)c1ccccc1 (stereo partly shown) | 24.62
OCCNC1CCCC1 | 66.63
O=C1CCN(CC(=O)c2ccccc2F)CCN1 | -7.609
CC(C)CCC(O)CN1CCCN(C(N)=O)CC1 (stereo not shown) | 28.15
NCCc1ccc(OCC(F)(F)F)nc1 | 57.44
O=C1CCC(C(=O)Nc2ccc(F)c(Br)c2)N1 (stereo not shown) | 48.1
c1nc2c(c(NCCC3CCOC3)n1)CCNCC2 (stereo not shown) | 7.25
CCCN1CCC(NCC(O)c2ccco2)CC1 (stereo not shown) | -7.058
COc1cccc(-n2nnc(C(=O)NC3CC3)c2C)c1 | 65.87
CC(C)(C#N)c1ccc(-c2cc(C(N)=O)ccn2)cc1 | 44.53
CCCc1nnc(NCc2cccnc2)o1 | 6.196
CN(C)S(=O)(=O)c1cccc(CN2CCCC2)c1 | 51.83
O=C(N[C@@H]1CCCNC1)c1nc2ccccn2c1F | 8.732
CN(C)S(=O)(=O)N1CCCC1c1ccccc1Br (stereo not shown) | 80.91
Cc1cnn(C(=O)c2nn(C)c(C)c2Cl)c1 | 33.61
Cc1noc(C2COCCN2Cc2cccnc2C)n1 (stereo not shown) | 10.81
CCCn1c(O)nnc1SCc1cccnc1 | 26.8
CN1CCN(CCS(=O)(=O)c2ccc(Cl)cc2)CC1 | 13.11
COc1c(Br)cccc1CN | 34.64
CN(CC(N)=O)CC(=O)N(C)Cc1cc(Br)cs1 | 17.49
CSCc1cccc(CNC(=O)c2ccon2)c1 | 49.35
CCS(=O)(=O)NCCCNS(=O)(=O)c1ccc(C)cc1 | 29.17
NC[C@H](O)c1cccc(Cl)c1 | 45.63
CCN(CC(N)=O)Cc1ccc(Cl)s1 | 8.499
Cc1ccc2[nH]c(C(=O)N3CCN(C)CC3)cc2c1 | 69.23
COc1cc(N2CCNCC2)cc(OC)c1OC | 30.42
CCN1C[C@H](NC(=O)c2cnc(SC)nc2)[C@@H](OC)C1 | 49.66
CC1CC(=O)NCCN1 (stereo not shown) | 52.48
CN1CCCN(C(=O)COc2ccc(Br)cc2)CC1 | 25.22
Cc1nc(Cn2cc(S(=O)(=O)N(C)C)ccc2=O)cs1 | 58.36
NCC(O)c1ccncc1 (stereo not shown) | 7.48
CC1CCCN(CCC(=O)Nc2sccc2C(N)=O)C1 (stereo not shown) | 15
CCOC(=O)Nc1ccc2c(c1)OCCO2 | 59.15
CCCC1CCN(CC(=O)NCc2cccnc2)C1 (stereo not shown) | 13.6
CN(Cc1ccco1)CC(O)COCc1cccs1 (stereo not shown) | 68.65
CCC(NC(=O)c1nc(C)c[nH]1)c1cccc(C)n1 (stereo not shown) | 12.94
O=C1CNC(=O)C2(CC2)N1 | 1.486
CN1CN(Cc2ccc(Cl)o2)CC1=O | 84.07
N#Cc1cccc([C@H]2C[C@H](N)C2)c1 | 33.13
COCCOCc1cccc(NC(=O)NC(C)C)c1 | 63.38
CC(C(=O)NC1CC1)N1CCNCC1 (stereo not shown) | -5.397
O=S(=O)(NC1CC1)c1cccs1 | 25.05
CN1CCN(C(=O)Cc2ccccc2)CC1 | 13.95
O=C(NC1CCNCC1)c1ccc[nH]1 | 1.8
CN(C)S(=O)(=O)c1ccc(CS(=O)(=O)C2CCCC2)o1 | 0.1206
O=C(Nc1nnc(-c2cccs2)s1)NC1CCCNC1 (stereo not shown) | 63.52
CCN(CC)S(=O)(=O)CC(=O)Nc1ccc(F)c(C)c1 | 58.79
CCc1nsc(N2CCSCC2)n1 | 33.18
c1ccc(CN2CCCN(CC3CCOC3)CC2)nc1 (stereo not shown) | 6.804
O=C(Nc1ncccn1)c1ccc(Br)o1 | 33.17
Cc1ccc(NC(=O)CS(C)(=O)=O)c(C)c1 | 6.851
COCCC(=O)N1CCC(Nc2ncccc2Br)CC1 | 67.3
CN1C(=O)Cc2cc(C(=O)NCc3ccco3)ccc21 | 17.4
NC(=O)C[C@H](N)c1cccc(Cl)c1 | -2.514
CN(C)S(=O)(=O)NCCNc1ccc2ccccc2n1 | 71.64
CC(=O)NCCS(=O)(=O)N1CCc2ccccc21 | 22.43
CSCCC(=O)N(C)Cc1cccc(-n2cccn2)c1 | 75.35
COc1cc(C(=O)NCCC(C)C)cc(OC)c1OC | 6.718
O=C(Cc1cccc(O)c1)NCCCn1cncn1 | 3.247
NC(=O)c1c(F)cccc1OCc1noc(C2CC2)n1 | 1.172
Cc1ccsc1CNC(=O)C(NC(N)=O)C(C)C (stereo not shown) | 2.253
COC(=O)CC(C)(N)c1ccccc1 (stereo not shown) | -2.449
Cc1ncn(CC(=O)N2CC[C@](C)(O)[C@H](C)C2)c1C | 6.28
O=C(Cc1ccccc1Cl)NC1CCCNC1 (stereo not shown) | 13.69

For reference, 9 entries once more:

structure,Percent Effect
CN(Cc1ccco1)CC(O)COCc1cccs1 (stereo not shown),68.65
O=C(N[C@@H]1CCCNC1)c1nc2ccccn2c1F,8.732
CN1CCN(C(=O)Cc2ccccc2)CC1,13.95
O=C(Cc1cccc(O)c1)NCCCn1cncn1,3.247
CN1C(=O)Cc2ccccc2C1C(=O)N1CCCC1 (stereo not shown),-3.574
CN(C)S(=O)(=O)c1ccc(CS(=O)(=O)C2CCCC2)o1,0.1206
CC1CC(=O)NCCN1 (stereo not shown),52.48
CN1C(=O)Cc2cc(C(=O)NCc3ccco3)ccc21,17.4
CCN1C[C@H](NC(=O)c2cnc(SC)nc2)[C@@H](OC)C1,49.66

Source: ChEMBL document CHEMBL3988442, “University of Dundee, Small-Polar-MMV Screening Library” (2021).